Anti-infective test results gathered from many reports (values: NIAID ChemDB through PubChem).

Shared fields: growth or infection tests; organism: Candida albicans; measure: MIC

Neighbouring rows are from separate reports.

compound | read by | strain | result
CN(C)CCn1[se]c2ccccc2c1=O | agar | - | >512 µg/mL
Clc1nc(NC2CC2)nc(N2CCN(C(c3ccccc3)c3ccccc3)CC2)n1 | agar | MTCC 183 | 100 µg/mL
C[C@@H]1[C@H](O)[C@@H](C)/C=C/C=C/C=C/C=C/C=C/C=C/C=C/[C@H](O[C@@H]2O[C@H](C)[C@@H](O)[C@H](N)[C@@H]2O)C[C@@H]2O[C@](O)(C[C@@H](O)C[C@@H](O)[C@H](O)CC[C@@H](O)C[C@@H](O)CC(=O)O[C@H]1C)C[C@H](O)[C@H]2C(=O)O | resazurin | SC5314 | 0.63 µg/mL
O=c1c(-c2ccc(O)cc2)coc2cc(OCCN3CCOCC3)cc(O)c12 | MTT | - | >50 µg/mL
CCC(C)n1ncn(-c2ccc(N3CCN(c4ccc(OC[C@H]5CO[C@](Cn6cncn6)(c6ccc(Cl)cc6Cl)O5)cc4)CC3)cc2)c1=O | agar diffusion | - | 12 µg/mL
O=c1c(-c2ccc(O)cc2)coc2cc(OCCCCN3CCNCC3)cc(O)c12 | MTT | - | >50 µg/mL
Cc1c(N2CCCC(CF)C2)c(F)cn2c(=O)c(C(=O)O)cc(C3CC3)c12 | - | CCH442 | >100 µg/mL
C[C@@H]1[C@H](O)[C@@H](C)/C=C/C=C/C=C/C=C/C=C/C=C/C=C/[C@H](OC2O[C@@H](C)[C@H](O)[C@@H](N)[C@H]2O)C[C@@H]2OC(O)(C[C@@H](O)C[C@@H](O)[C@H](O)CC[C@@H](O)C[C@@H](O)CC(=O)C[C@H]1C)C[C@H](O)[C@H]2C(=O)O | - | MTCC 183 | 300 µg/mL
CCCN(CCC)CCOc1cc(O)c2c(=O)c(-c3ccc(O)cc3)coc2c1 | MTT | - | >50 µg/mL
C=C1OC(=O)c2c(OC)cc(OC)c(C)c21 | broth dilution / absorbance | NCPF3135 | >128 µg/mL
Cc1c(N2CCc3ccccc3C2)c(F)cn2c(=O)c(C(=O)O)cc(C3CC3)c12 | - | CCH442 | >100 µg/mL
CCc1cc(C(=O)O)c(=O)n2cc(F)c(N3CCC(N)C3)c(C)c12.Cl | - | CCH442 | >100 µg/mL
CCN1C(C#N)=C(C#N)N=C(c2ccsc2)C1/C=C/c1ccccc1 | broth dilution / visual reading | RCPF Y-401/NCTC 885-653 | >100 µg/mL
Cc1c(-c2ccccc2)c(=O)oc2ccc(-c3cc(-c4ccccc4)c4c(n3)-c3ccccc3C4)cc12 | broth dilution / turbidity | MTCC 227 | 500 µg/mL
CN(C/C=C/C#CC(C)(C)C)Cc1cccc2ccccc12 | broth dilution / visual reading | RCPF Y-401/NCTC 885-653 | 6.25 µg/mL
CCC(C)CC(C)CCCCCCCCC(=O)N[C@H]1C[C@@H](O)[C@H](NCCN)NC(=O)[C@@H]2[C@@H](O)CCN2C(=O)[C@H]([C@H](O)CCN)NC(=O)[C@H]([C@H](O)[C@@H](O)c2ccc(O)cc2)NC(=O)[C@@H]2C[C@@H](O)CN2C(=O)[C@H]([C@@H](C)O)NC1=O | resazurin | DSY3988 | 0.63 µg/mL
C=CCc1ccc(O)c(-c2ccc(O)c(CC=C)c2)c1 | broth dilution | YL 331 | 128 µg/mL
CCOC(Cn1[se]c2ccccc2c1=O)OCC | agar | - | 314 µg/mL
Cc1c(N2CCC3CNCC32)c(F)cn2c(=O)c(C(=O)O)cc(C3CC3)c12 | - | CCH442 | >100 µg/mL
O=c1c(-c2ccc(O)cc2)coc2cc(OCCCCn3ccnc3)cc(O)c12 | MTT | - | >50 µg/mL
Fc1ccccc1N1CCN(c2nc(Cl)nc(NC3CC3)n2)CC1 | agar | MTCC 183 | 25 µg/mL
COc1ccc(-c2cc(-c3ccc4oc(=O)c(-c5ccccc5)c(C)c4c3)nc3c2Cc2ccccc2-3)cc1 | broth dilution / turbidity | MTCC 227 | >1000 µg/mL
Cc1c(N2C[C@@H]3CCC[C@@H](N)[C@H]3C2)c(F)cn2c(=O)c(C(=O)O)cc(C3CC3)c12.Cl | - | CCH442 | 50 µg/mL
O=c1c2ccccc2[se]n1C1C2CC3CC(C2)CC1C3 | agar | - | 5 µg/mL
CCN1C(C#N)=C(C#N)N=C(c2ccccc2)C1/C=C/c1ccccc1 | broth dilution / visual reading | RCPF Y-401/NCTC 885-653 | >100 µg/mL
O=c1c(-c2ccc(O)cc2)coc2cc(OCCN3CCNCC3)cc(O)c12 | MTT | - | >50 µg/mL
C[N+](C)(C)CCn1[se]c2ccccc2c1=O | agar | - | >512 µg/mL
Cc1c(N2CC3CCC(N)C3C2)c(F)cn2c(=O)c(C(=O)O)cc(C3CC3)c12.Cl | - | CCH442 | >100 µg/mL
Cc1c(N2CCN(C)CC2)c(F)cn2c(=O)c(C(=O)O)cc(C3CC3)c12 | - | CCH442 | >100 µg/mL
O=c1c(-c2ccc(O)cc2)coc2cc(OCCn3ccnc3)cc(O)c12 | MTT | - | >50 µg/mL
Cc1c(N2CCCC(O)C2)c(F)cn2c(=O)c(C(=O)O)cc(C3CC3)c12 | - | CCH442 | >100 µg/mL
Cc1ccc(-c2cc(-c3ccc4oc(=O)c(-c5ccccc5)c(C)c4c3)nc3c2CCc2ccccc2-3)cc1 | broth dilution / turbidity | MTCC 227 | 500 µg/mL
CC(C)n1[se]c2ccccc2c1=O | agar | - | 2 µg/mL
CCN1C(C#N)=C(C#N)N=C(c2cccs2)C1/C=C/c1ccc(-c2ccccc2)cc1 | broth dilution / visual reading | RCPF Y-401/NCTC 885-653 | >100 µg/mL
O=c1c(-c2ccc(O)cc2)coc2cc(OCCCCN3CCCCC3)cc(O)c12 | MTT | - | >50 µg/mL
O=C(Nc1cccc(Cl)c1)n1[se]c2ccccc2c1=O | agar | - | >512 µg/mL
Cc1c(N2CC[C@H](CO)C2)c(F)cn2c(=O)c(C(=O)O)cc(C3CC3)c12 | - | CCH442 | 6.2 µg/mL
Clc1nc(NC2CC2)nc(N2CCN(c3ccccn3)CC2)n1 | agar | MTCC 183 | 100 µg/mL
CCN1CC(c2cccs2)=NC(C#N)=C1C#N | broth dilution / visual reading | RCPF Y-401/NCTC 885-653 | >100 µg/mL
Cc1c(N2CC[C@H]([C@@H](C)N)C2)c(F)cn2c(=O)c(C(=O)O)cc(C3CC3)c12.Cl | - | CCH442 | >100 µg/mL
CC(=O)N1CCN(c2ccc(OC[C@H]3CO[C@](Cn4ccnc4)(c4ccc(Cl)cc4Cl)O3)cc2)CC1 | - | Isogenic isolate 5 MDR1 (25X) | ≤0.008 µg/mL
CN1CCN(c2nc(Cl)nc(NC3CC3)n2)CC1 | agar | MTCC 183 | 200 µg/mL
Cc1c(N2CCCC(CF)C2)c(F)cn2c(=O)c(C(=O)O)cc(C3CC3)c12 | - | CCH442 | >100 µg/mL
Cc1c(-c2ccccc2)c(=O)oc2ccc(-c3cc(-c4ccc(Cl)cc4)c4c(n3)-c3ccccc3C4)cc12 | broth dilution / turbidity | MTCC 227 | 1000 µg/mL

5 of the rows above, restated:

compound	read by	strain	result
C[N+](C)(C)CCn1[se]c2ccccc2c1=O	agar	-	>512 µg/mL
Cc1c(N2CC3CCC(N)C3C2)c(F)cn2c(=O)c(C(=O)O)cc(C3CC3)c12.Cl	-	CCH442	>100 µg/mL
CCN1C(C#N)=C(C#N)N=C(c2cccs2)C1/C=C/c1ccc(-c2ccccc2)cc1	broth dilution / visual reading	RCPF Y-401/NCTC 885-653	>100 µg/mL
Cc1c(N2CC[C@H]([C@@H](C)N)C2)c(F)cn2c(=O)c(C(=O)O)cc(C3CC3)c12.Cl	-	CCH442	>100 µg/mL
Cc1c(N2CCc3ccccc3C2)c(F)cn2c(=O)c(C(=O)O)cc(C3CC3)c12	-	CCH442	>100 µg/mL

An empty or dashed field is not shown.